The values that follow come from US20030044399A1, “Method of treatment” (SmithKline Beecham Corporation, priority 1998, published 2003).

By UniProt entry, the sequences of proteins in these tests, tags left out. Residues count along the entry.
UniProt Q95PM0, 1-450: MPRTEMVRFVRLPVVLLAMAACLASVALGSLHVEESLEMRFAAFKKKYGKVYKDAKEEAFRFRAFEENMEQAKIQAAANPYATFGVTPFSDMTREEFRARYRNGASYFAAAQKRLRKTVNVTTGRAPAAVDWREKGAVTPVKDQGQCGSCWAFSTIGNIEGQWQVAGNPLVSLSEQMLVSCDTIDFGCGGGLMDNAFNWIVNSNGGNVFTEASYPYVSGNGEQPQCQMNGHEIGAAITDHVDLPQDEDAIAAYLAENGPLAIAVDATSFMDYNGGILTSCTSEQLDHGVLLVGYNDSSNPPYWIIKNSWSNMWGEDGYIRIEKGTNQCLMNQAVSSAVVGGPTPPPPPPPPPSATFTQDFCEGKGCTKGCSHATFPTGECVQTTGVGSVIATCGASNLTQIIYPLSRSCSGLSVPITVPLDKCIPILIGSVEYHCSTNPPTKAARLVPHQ
UniProt P25779, 123-337 limits assumed: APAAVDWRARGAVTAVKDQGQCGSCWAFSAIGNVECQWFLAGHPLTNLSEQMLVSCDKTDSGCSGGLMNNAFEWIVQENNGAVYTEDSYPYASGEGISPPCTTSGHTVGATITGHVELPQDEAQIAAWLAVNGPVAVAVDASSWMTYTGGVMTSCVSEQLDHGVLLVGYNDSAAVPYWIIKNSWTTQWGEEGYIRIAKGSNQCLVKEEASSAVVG

One test has as its target Rhodazain (Trypanosoma brucei rhodesiense, UniProt Q95PM0). Put plainly: Cysteine protease inhibition, progress curve method, rhodazain. Type of test: biochemical, Trypanosoma brucei rhodesiensi. The conditions noted are these: read-out: Rhodazain Ki; 10 uM Cbz-Leu-Arg-AMC, 100 mM Na acetate pH 5.5, 5 mM cysteine. The procedure:
(§1) Standard assay conditions for the determination of kinetic constants used 10 uM fluorogenic peptide substrate, Cbz-Phe-Arg-AMC for the cysteine proteases from Leishmania spp and Schistosoma Mansoni, Cbz-Leu-Arg-AMC for the cysteine proteases from Plasmodium falciparum and Trypanosoma brucei rhodesiensi, and Ac-Lys-Glu-Lys-Leu-Arg-AMC (4 uM final substrate concentration) for the cysteine protease from Trypoanosoma cruzi, and were determined in 100 mM Na acetate at pH 5.5 containing 5 mM cysteine. Stock substrate solutions were prepared at concentrations of […] in DMSO with 10 uM (4 uM for Ac-Lys-Glu-Lys-Leu-Arg-AMC) final substrate concentration in the assays. The final DMSO concentration was 2% and the final volume was 100 uL. All assays were conducted at ambient temperature. […]
(§2) Potential inhibitors were evaluated using the progress curve method. […] For those compounds whose progress curves were linear, apparent inhibition constants (Ki,app) were calculated according to equation 1 (Brandt et al., Biochemitsry, 1989, 28, 140): […]
(§3) Where [AMC] is the concentration of product formed over time t, v0 is the initial reaction velocity and vss is the final steady state rate. Values for kobs were then analyzed as a linear function of inhibitor concentration to generate an apparent second order rate constant (kobs/inhibitor concentration or kobs/[I]) describing the time-dependent inhibition. […]

A further test deals with Cruzain (Trypanosoma cruzi, UniProt P25779). Put plainly: Cysteine protease inhibition, progress curve method, cruzain. Type of test: biochemical. The conditions noted are these: read-out: Cruzain Ki nM; 4 uM Ac-Lys-Glu-Lys-Leu-Arg-AMC, 100 mM Na acetate pH 5.5, 5 mM cysteine. The procedure: as §1, §2, §3

In the case of `O=C(N[C@@H](Cc1ccccc1)C(=O)NC1CCCN(S(=O)(=O)c2ccccn2)CC1=O)c1cccc2ccccc12` (stereo partly drawn), the Ki (usually a dissociation constant, usually derived from enzyme kinetics or from competition with a known ligand) on Rhodazain amounted to 5.7 nM.

On to `CC(C)C[C@H](NC(=O)c1cc2sccc2s1)C(=O)NC1CCCN(S(=O)(=O)c2ccccn2)CC1=O` (stereo partly drawn), for which the Ki stood at 9 nM at Cruzain and 5.9 nM on Rhodazain.
